Patent publication US20150087605A1 (priority 2013, published 2015)

Biological target: Anthrax Lethal Factor (LF) (Bacillus anthracis, UniProt P15917)
Assay: competitive binding experiment: Sulindac-bMR binding to LF in presence of free competitor
Conditions: increasing LF

CCCCc1ccc(C(=O)O)nc1 [Fusaric Acid]
change in ΔMRtoxin of sulindac bMR nanosensor with free competitor: significant decrease in the ΔMRtoxin
